Source: article PMC6225228, “Design, Synthesis and Evaluation of N-pyrazinylbenzamides as Potential Antimycobacterial Agents” (Molecules : A Journal of Synthetic Chemistry and Natural …, 2018)

What was measured:
[1] = test system: Staphylococcus aureus CCM 4516/08; assay: Antibacterial microdilution broth, SA; format: cell-based; details: IC50 (HepG2)/MIC (S. aureus CCM 4516/08, 24 h) in molar concentrations rounded to units
[2] = test system: Mycobacterium tuberculosis H37Rv CNCTC My 331/88 (ATCC 27294); assay: Antimycobacterial microdilution MABA, M. tuberculosis; format: cell-based; details: IC50 (HepG2)/MIC (Mtb) in molar concentrations rounded to units

SMILES | SA SI [1] | Mtb SI [2]
CC(=O)Oc1ccc(C(=O)Nc2cnc(Cl)cn2)cc1 [Compound 2d-Ac] | >510 | –
O=C(Nc1cncc(Cl)n1)c1cccc(C(F)(F)F)c1 [Compound 3n, N-(6-chloropyrazin-2-yl)-3-(trifluoromethyl)benzamide] | – | >3
Cc1ccc(C(=O)Nc2cnc(Cl)cn2)cc1 [Compound 2h] | – | > 10
O=C(Nc1cnc(Cl)cn1)c1ccccc1O [Compound 2b] | 10 | 3
